From publication PMC12548384 come the findings set out here.

In the data set the target is T1, CmrR (Clostridioides difficile R20291) (UniProt A0A9R0CG09).
T1 sequence: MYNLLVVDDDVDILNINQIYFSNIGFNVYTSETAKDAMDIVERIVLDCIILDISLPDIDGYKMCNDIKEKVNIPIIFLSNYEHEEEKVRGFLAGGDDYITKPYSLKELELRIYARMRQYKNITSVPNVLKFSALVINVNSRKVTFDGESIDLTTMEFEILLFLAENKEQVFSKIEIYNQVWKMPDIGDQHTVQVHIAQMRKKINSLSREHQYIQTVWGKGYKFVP
The data set is described as follows: EMSA. The following applies: up to 1.5 uM CmrR; EMSA: 15 nM probe, 1x binding buffer 20 mM Tris pH 8, 1 mM EDTA, 10 mM MgCl2, 100 mM NaCl, 5% glycerol, plus half volume protein in His6 buffer; recombinant protein; protein details: N-terminal 6xHis (pET28a+); probe letters rebuilt from the primers and the genome.

For at least one entry, the source does not settle the construct or the ends of the probe.

For “CTAGCCAATAGACAAGTTTCTAGAAAAATAATAAATTTATAAGTGAAAATGACTTTAAGCTCCATTCTCCAACAATCGGAGACTTTAATTAGTATTTAATAATAAATCTTAATGTTCAATACAATATTCAAGAATTGTTCAAAAATACTTAAGTATTATAGTCTAGTTTGTAAAGATATTATAAAATAATAATACTAGTTATATATGAAAATAAAACATTATAATTTGTAATAATTATAAAACTTGAGATTATGATTAAAATACCTTTGAATGGAGTGGTGTAATGTATAATTTACTGGTTGTAGATGATGATGTTG (double strand) [probe 8 (cmr switch in other orientation than probe 5)]”, the binding result is “binds”.
